Compound potency records, mixed from different reports. Data source: NIAID ChemDB in PubChem.

All rows: whole-cell or culture tests; species: Candida albicans

A number after MIC or MFC names an inhibition level or a share of isolates. Conditions beyond the fields shown may differ between rows. Blank or dashed fields: not listed here. ECn: concentration that inhibits the pathogen or its effect by n%.

compound	strain	conditions	read-out	method	result
CCOc1cc2c(cc1F)n([O-])c(C)c(Cl)[n+]2=O	Clinical isolate 2	-	MIC	-	15.6 µg/mL
Clc1cccc(Cl)c1COc1ccc(C(c2cccc3ccccc23)n2ccnc2)cc1.O=[N+]([O-])O	16 strains	-	MIC90	-	≥256 µg/mL
Cc1c(O)cccc1C(=O)N[C@@H](CSc1ccccc1)[C@H](O)CN1C[C@H]2CCCC[C@H]2C[C@H]1C(=O)NC(C)(C)C	I130B	-	MIC	-	64 µg/mL
Cc1c(Cl)[n+](=O)c2cc(Cl)ccc2n1[O-]	Clinical isolate 6	-	MIC	-	31.25 µg/mL
C[C@@H](N1CCN(Cc2cn(Cc3ccc(Cl)cc3Cl)c3cc(Cl)ccc23)CC1)[C@](O)(Cn1cncn1)c1ccc(F)cc1F	ATCC MYA-1003	-	MIC80	resazurin	>128 µg/mL
Clc1ccc(COc2ccc(C(c3ccc(-c4ccccc4)cc3)n3ccnc3)cc2)cc1.O=[N+]([O-])O	16 strains	-	MIC90	-	≥256 µg/mL
CCC(C)CC(C)CCCCCCCCC(=O)N[C@H]1C[C@@H](O)[C@@H](OCCN)NC(=O)[C@@H]2[C@@H](O)CCN2C(=O)[C@H]([C@@H](O)CCN)NC(=O)[C@H]([C@H](O)[C@@H](O)c2ccc(O)cc2)NC(=O)[C@@H]2C[C@@H](O)CN2C(=O)[C@H]([C@H](C)O)NC1=O	Fluconazole-susceptible	-	MIC90	-	0.06 µg/mL
C[C@@H](N1CCN(Cc2cn(Cc3ccc(C(F)(F)F)cc3)c3cc(Cl)ccc23)CC1)[C@](O)(Cn1cncn1)c1ccc(F)cc1F	ATCC 36082	-	MIC80	resazurin	0.125 µg/mL
CCCCCOc1ccc(-c2ccc(-c3ccc(C(=O)N[C@H]4CCCNC(=O)C5CNCN5C(=O)C(C(C)O)NC(=O)C(CCc5ccc(O)cc5)NC(=O)C5C[C@@H](O)CN5C(=O)C(C(C)O)NC4=O)cc3)cc2)cc1	ATCC 62376	-	MIC	-	0.78 µg/mL
Fc1ccc(COc2ccc(C(c3ccc4ccccc4c3)n3ccnc3)cc2)c(F)c1.O=[N+]([O-])O	16 strains	-	Mean MIC	-	≥256 µg/mL
CCCCCOc1ccc(-c2ccc(-c3ccc(C(=O)N[C@H]4CCCNC(=O)C5[C@@H](O)[C@@H](O)N5C(=O)C(C(C)O)NC(=O)C(CCc5ccc(O)cc5)NC(=O)C5C[C@@H](O)CN5C(=O)C(C(C)O)NC4=O)cc3)cc2)cc1	ATCC 62376	-	MIC	-	0.1 µg/mL
NC(=NC1CCCC1)c1ccc(-c2ccc(-c3ccc(C(N)=NC4CCCC4)cc3)o2)cc1	21 strains	-	Geometric mean MFC	-	35.35 µg/mL
Clc1ccc(COc2ccc(C(c3nccc4ccccc34)n3ccnc3)cc2)c(Cl)c1	17 strains	-	Mean MIC	-	≥256 µg/mL
Clc1ccc(COC(Cn2ccnc2)c2ccc(Cl)cc2Cl)c(Cl)c1	10 isolates	pH 6	EC90	broth dilution	4 µg/mL
Cc1c(S(=O)(=O)c2ccccc2)[n+](=O)c2cc(Cl)ccc2n1[O-]	Clinical isolate 19	-	MIC	-	62.5 µg/mL
CCCCCOc1ccc(-c2ccc(-c3ccc(C(=O)N[C@H]4CCCNC(=O)C5C[C@H](NC6CCNCC6)CN5C(=O)C(C(C)O)NC(=O)C(CCc5ccc(O)cc5)NC(=O)C5C[C@@H](O)CN5C(=O)C(C(C)O)NC4=O)cc3)cc2)cc1	ATCC 10231	-	MIC	-	0.39 µg/mL
CCC(C)n1ncn(-c2ccc(N3CCN(c4ccc(OC[C@H]5CO[C@](Cn6cncn6)(c6ccc(Cl)cc6Cl)O5)cc4)CC3)cc2)c1=O	37 isolates	-	MIC90	-	0.0313 µg/mL
CC(O)Cc1ccc(Cn2cc(CN3CCN([C@H](C)[C@](O)(Cn4cncn4)c4ccc(F)cc4F)CC3)c3cccc(F)c32)cc1	ATCC 64548	-	MIC80	resazurin	2 µg/mL
COc1cc(O)c2c(c1)C(=O)c1c(cc3c(c1O)-c1c(cc(C)c(C(=O)NC(CO)C(=O)O)c1O)[C@H](OC1OC(C)C(O)C(OC4OCC(O)C(O)C4O)C1O)C3O)C2=O	A25942 (amphotericin B-resistant)	-	MIC	-	4 µg/mL
C[C@@H](N1CCN(Cc2cn(Cc3ccc(F)cc3F)c3c(F)cccc23)CC1)[C@](O)(Cn1cncn1)c1ccc(F)cc1F	ATCC 64548	-	MIC80	resazurin	0.5 µg/mL
CC(O)C1NC(=O)C(CCc2ccc(O)cc2)NC(=O)C2C[C@@H](O)CN2C(=O)C(C(C)O)NC(=O)[C@@H](NC(=O)c2ccc(N3CCN(c4ccc(OCc5ccccc5)cc4)CC3)cc2)CCCNC(=O)C2C[C@H](N)CN2C1=O	ATCC 62376	-	MIC	-	0.2 µg/mL
O=[n+]1c(Sc2ccccc2)c(CBr)n([O-])c2ccccc21	Clinical isolate 6	-	MIC	-	15.6 µg/mL
CCCCCOc1ccc(-c2ccc(-c3ccc(C(=O)N[C@H]4CCCNC(=O)C5C[C@H](N)CN5C(=O)C(C(C)O)NC(=O)C(c5ccc(O)cc5)NC(=O)C5CC(O)CN5C(=O)C(C(C)O)NC4=O)cc3)cc2)cc1	ATCC 62376	-	MIC	-	50 µg/mL
CCC(C)CC(C)CCCCCCCCC(=O)N[C@H]1C[C@@H](O)[C@H](NCCN)NC(=O)[C@@H]2[C@@H](O)CCN2C(=O)[C@H]([C@H](O)CCN)NC(=O)[C@H]([C@H](O)[C@@H](O)c2ccc(O)cc2)NC(=O)[C@@H]2C[C@@H](O)CN2C(=O)[C@H]([C@@H](C)O)NC1=O	10 isolates	pH 7	EC90	broth dilution	0.125 µg/mL
C=CCc1ccc(O)c(OC)c1	2323	-	MIC90	turbidity	480 µg/mL
CC(=O)N1CCN(c2ccc(OC[C@H]3CO[C@](Cn4ccnc4)(c4ccc(Cl)cc4Cl)O3)cc2)CC1	10 isolates	pH 4	EC90	broth dilution	>16 µg/mL
Fc1ccccc1COc1ccc(C(c2ccc3ccccc3c2)n2ccnc2)cc1	17 strains	-	MIC90	-	256 µg/mL
C[C@@H](N1CCN(Cc2cn(Cc3cccc(C(F)(F)F)c3)c3ccccc23)CC1)[C@](O)(Cn1cncn1)c1ccc(F)cc1F	ATCC MYA-1003	-	MIC80	resazurin	16 µg/mL
Nc1[nH]c(=O)ncc1F	10 isolates	pH 6	MIC	broth dilution	0.5 µg/mL

4 of the rows above, restated:

compound,strain,conditions,read-out,method,result
CCCCCOc1ccc(-c2ccc(-c3ccc(C(=O)N[C@H]4CCCNC(=O)C5CNCN5C(=O)C(C(C)O)NC(=O)C(CCc5ccc(O)cc5)NC(=O)C5C[C@@H](O)CN5C(=O)C(C(C)O)NC4=O)cc3)cc2)cc1,ATCC 62376,-,MIC,-,0.78 µg/mL
C=CCc1ccc(O)c(OC)c1,2323,-,MIC90,turbidity,480 µg/mL
CCOc1cc2c(cc1F)n([O-])c(C)c(Cl)[n+]2=O,Clinical isolate 2,-,MIC,-,15.6 µg/mL
Fc1ccccc1COc1ccc(C(c2ccc3ccccc3c2)n2ccnc2)cc1,17 strains,-,MIC90,-,256 µg/mL